# PubChem BioAssay AID624099, ICCB-Longwood, 2012
# Purpose: 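Human genes that papillomavirus E2 requires to repress the HPV18 LCR promoter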 (primary screen)
# System: human C33A cervical carcinoma cells (HPV-negative) stably expressing BPV1 E2 and an HPV18 LCR luciferase reporter
# Knock-down reagent: siRNA pool against human genes, 40 nM
# Duration: 72 h
# Detection: 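Per-well luciferase luminescence, z-scored on each plate against the plate mean and SD with control wells left out, then averaged across three replicate plates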
# Reading the numbers: mean z-score and z-score: higher = stronger reporter signal, weaker E2 silencing
# Hit rule: 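Hit if mean z-score reaches 2 and two or more of three replicate z-scores also reach 2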
# Shown is a random part of about 21,000 reagents tested. 497 of all reagents (2.4%) count as active. 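Higher z means weaker E2 silencing; only reporter increases were scored, and knock-downs that hurt cell survival may mask genuine repressor factors.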 Unmarked entries are inactive.
The opening 4 entries, to show the layout:
Gene,mean z-score,"z-score, replicate A","z-score, replicate B","z-score, replicate C"
PIP5K1C,0.11,-0.43,0.51,0.23
WDR13,-0.43,-0.12,-0.55,-0.64
GLIPR2,-0.28,-0.49,-0.53,0.18
LOC388166 (retired record),1.41,1.25,,1.58

Results, from the start:
Gene,mean z-score,"z-score, replicate A","z-score, replicate B","z-score, replicate C"
PIP5K1C,0.11,-0.43,0.51,0.23
WDR13,-0.43,-0.12,-0.55,-0.64
GLIPR2,-0.28,-0.49,-0.53,0.18
LOC388166 (retired record),1.41,1.25,,1.58
DZIP1,0.36,0.18,0.7,0.19
LOC401062 (retired record),-0.6,-0.32,-0.49,-0.98
EEF1AKMT1,1.05,1.27,0.81,1.06
RPS27AP17,-0.25,0.04,-0.12,-0.66
XYLT1,1.8,1.56,2.18,1.66
GPR161,-1.79,-1.62,-1.68,-2.06
PAPSS2,0.89,0.44,0.85,1.39
SMYD4,1.19,0.99,1.72,0.86
SPATA7,1.76,1.66,1.93,1.7
LOC388589 (retired record),0.16,0.26,0.23,-0.02
SLC24A2,0.56,0.35,0.59,0.72
BOD1L2,0.36,0.3,0.27,0.53
ELOA3P,1.39,1.29,1.5,1.39
GRAP,0.21,-0.13,0.32,0.45
ATAD3A,1.52,2.05,1.45,1.07
CALML5,-0.33,-0.4,-0.25,-0.33
KIAA1586,-0.3,-0.44,-0.59,0.12
CTSE,-0.9,-0.71,-1.1,-0.88
TAGLN3,2.46 (active),2.46,2.6,2.32
LMX1A,-0.39,-0.63,-0.43,-0.1
VMA12,-0.94,-0.96,-0.84,-1.01
MINDY3,-0.28,-0.32,-0.4,-0.13
CEACAM22P,0.39,0.15,0.35,0.69
DCAF5,1.03,1.15,0.81,1.15
SLC25A30,-0.74,-1.11,-0.69,-0.43
ABHD16B,-1.17,-0.71,-1.28,-1.52
CSNK2B,1.95,2.04,2.48,1.33
OR10J1,-0.8,-1.02,-0.7,-0.67
RBMX,0.28,0.29,0.48,0.06
TRAPPC14,-1.48,-1.61,-1.66,-1.17
SIX6,1.13,1.46,1.08,0.86
TFG,2.63 (active),2.41,2.51,2.98
CASP1,0.73,1.02,0.61,0.55
PURG,-0.24,-0.23,-0.62,0.12
OR2G2,0.12,0.57,0.06,-0.29
ANKRD12,-0.13,-0.34,0.02,-0.08
PTCHD4,-0.35,-0.83,-0.14,-0.1
KIF21A,1.91,2.1,1.94,1.7
SSTR1,-0.02,-0.03,0.1,-0.12
CRTC3,-0.79,-0.62,-0.99,-0.76
ZFP69,-0.23,-0.29,-0.31,-0.1
FABP7,-1.19,-0.97,-1.28,-1.33
KCNJ2-AS1,-0.74,-0.7,-0.54,-0.99
HSAJ2425 (retired record),-0.14,-0.09,-0.37,0.05
C17orf100,0.44,0.34,0.58,0.4
LINC00869,-0.1,-0.06,-0.25,0
SOWAHC,1.55,1.66,1.75,1.23
CLDN15,0.85,0.83,0.9,0.83
MIPOL1,-1.86,-1.7,-1.66,-2.22
MRGPRX1,1.53,1.19,1.88,1.5
KIAA1191,-0.5,-0.78,-0.33,-0.4
CPNE2,0.23,0.05,0.6,0.04
KHNYN,0.25,0.12,0.44,0.19
